Results of unrelated studies side by side (data: NIAID ChemDB).

Shared fields: whole-cell or culture tests; agent: HIV-1

Neighbouring rows are from separate reports. ECn is the concentration giving n% inhibition of infection, replication or growth. Blank or dashed fields: not listed here.

SMILES,read by,endpoint,strain,cells,conditions,changes,value
CCn1cc(C(=O)O)c(=O)c2cc(F)c(N3CCN(c4ccccc4OC)CC3)c(OC(F)F)c21,cytopathic effect / MTT,EC50,IIIB,CEM,,,0.2 µM
COc1cc2c(cc1OC)C1=NOC(c3ccccc3)C1C2,MTT,EC50,IIIB,MT-4,,,>12.9 µM
Nc1nc(Cl)c2ncn([C@H]3CC[C@@H](CO)C3)c2n1,cytopathic effect,EC50,IIIB,MT-2,,,>100 µg/mL
CC(C)Nc1cccnc1N(C)CCCCN(C)C(=O)c1cc2ccccc2[nH]1,p24,EC50,D34,PBMC,,,<0.01 µM
COc1cc2c(cc1OC)C1=NOC(c3ccc(Cl)cc3)C1C2,MTT,EC50,IIIB,MT-4,,,>12.1 µM
O=C(NCCCCN1CCCC2=C[C@@H]3C[C@@H](CN4CCCC[C@H]34)[C@@H]21)c1c(F)cc(Br)cc1F,luciferase,EC50,NL4-3,MT-4,,,>20 µM
COc1cc(C[C@H]2C(=O)OC[C@@H]2Cc2ccc(OC)c(OC)c2)ccc1O,p24,EC50,IIIB,H9,,,<0.05 µM
Cc1ncc(-c2ccc(OCC(C)C)cn2)c(N2CCC3(CC2)CC3(F)F)c1[C@H](OC(C)(C)C)C(=O)O,luminescence,EC50,NL4-3,MT-2,,,9.4 µM
C[C@H]1CO[C@@H]2Cn3cc(C(=O)NCc4ccc(F)cc4F)c(=O)c(O)c3C(=O)N12,RT activity,EC50,NL4-3,CBMC,,R263K,0.0014 µM
Cc1ncc(-c2ccc(OCCc3ccc(F)cc3)cn2)c(N2CCC3(CCCC3)CC2)c1[C@H](OC(C)(C)C)C(=O)O,luminescence,EC50,NL4-3,MT-2,,,1.7 µM
COC(=O)[C@H](C)NP(=O)(OC[C@@H]1C=C[C@H](n2cc(C)c(=O)[nH]c2=O)O1)Oc1cc(Cl)ccc1Cl,p24,EC50,RTMDR,PBMC,,RT M41L L74V T215Y V106N,0.022 µM
CCC1(C)CCN(c2c(-c3ccc(OCCOC(C)C)cn3)cnc(C)c2[C@H](OC(C)(C)C)C(=O)O)CC1,luminescence,EC50,NL4-3,MT-2,,,2.9 µM
COP(=O)(c1cc(C)cc(CCC#N)c1)c1c(C(N)=O)[nH]c2ccc(Cl)cc12,cytopathic effect,EC50,BH10,MT-4,,Y181C,0.0015 µM
Cc1cc(-c2ccc(C#N)cc2)cc(C)c1Oc1ccnc(S(=O)(=O)CC(=O)Nc2ccc(Cl)cc2)n1,MTT,EC50,IIIB,MT-4,,Y181C,0.275 µM
O=C(c1cc2ccccc2[nH]1)N1CCN(c2ncccc2NCC(F)(F)F)CC1,p24,EC50,D34,PBMC,,,<10 µM
Nc1nc2c(ncn2[C@H]2C=C[C@@H](CO)C2)c(=O)[nH]1,cytopathic effect,EC50,IIIB,MT-2,,,0.19 µg/mL
Cc1ccc(C)c(CS(=O)c2ccc(Cl)c[n+]2[O-])c1,cytopathic effect,EC50,IIIB,CEM,,,2 µg/mL
COc1ccc(/C=C/c2cc(Cl)c3ccccc3n2)c(OC)c1,luminescence,EC50,UG070,TZM-bl,,,3.99 µM
O=C(NCCCCCCN1CCCC2=C[C@@H]3C[C@@H](CN4CCCC[C@H]34)[C@@H]21)c1c(F)cc(Cl)cc1F,luciferase,EC50,NL4-3,MT-4,,,>20 µM
CCCOCn1c(Sc2ccccc2)c(C)c(=O)[nH]c1=O,cytopathic effect / MTT,EC50,IIIB,MT-4,,,3 µM
Cc1cc(-c2ccc(C#N)cc2)cc(C)c1Oc1ccnc(S(=O)(=O)C(C)C(=O)NCc2ccc(F)cc2)n1,MTT,EC50,IIIB,MT-4,,,5.83 µM
O=C(O[C@@H]1Cc2c(O)cc(O)cc2O[C@@H]1c1cc(O)c(O)c(O)c1)c1cc(O)c(O)c(O)c1,p24,EC50,IIIB,MT-2,,,9.89 µM
Cc1cn([C@H]2C[C@H](N=[N+]=[N-])[C@@H](CO)O2)c(=O)[nH]c1=O,RT activity,EC50,302506 (subtype B),PBMC,,,0.00045 µM
Cc1cc(C)c(CS(=O)c2cccc[n+]2[O-])c(C)c1,cytopathic effect,EC50,RF,CEM,,,12 µg/mL
Cc1cc(C)cc(S(=O)(=O)c2c(C(=O)/C=C/C(N)=O)[nH]c3ccc(Cl)cc23)c1,cytopathic effect / MTT,EC90,,C8166,,RT-K103R,>100 µM
CCn1cc(C(=O)O)c(=O)c2cc(F)c(N3CCN(c4ccccc4OC)CC3)c(OC(F)F)c21,p24,EC50,,OM-10.1,,,0.042 µM
CCC1(C)CCN(c2c(-c3ccc(OCCOc4ccccc4)cn3)cnc(C)c2[C@H](OC(C)(C)C)C(=O)O)CC1,luminescence,EC50,NL4-3,MT-2,,,1.9 µM
NC(=O)CCNC(=O)c1ccccc1S,cytopathic effect / XTT,EC50,RF,CEM,,,2.3 µM
COc1cc2c(cc1OC)C1=NOC(c3ccccc3Cl)C1C2,MTT,EC50,IIIB,MT-4,,,>67.97 µM
Cc1cc(-c2ccc(C#N)cc2)cc(C)c1Oc1ccnc(S(=O)(=O)C(C)C(=O)Nc2ccc(C#N)cc2)n1,MTT,EC50,IIIB,MT-4,,K103N,0.019 µM
COc1ccc(S(=O)(=O)N(CC(C)C)C[C@@H](O)[C@H](Cc2ccccc2)NC(=O)OCc2ccncc2)cc1,p24,EC50,IIIB,CEM,,,<0.101 µM
Cc1cc(/C=C/C#N)cc(C)c1Oc1ccnc(S(=O)(=O)CC(=O)Nc2ccc(Cl)cc2)n1,MTT,EC50,IIIB,MT-4,,Y181C,0.021 µM
Cc1cc(C)c(Oc2ccnc(NC3CCN(C(=O)c4cc5cc(NS(C)(=O)=O)ccc5[nH]4)CC3)n2)c(C)c1,MTT,EC50,IIIB,MT-4,,,0.0086 µM
Cc1cc(C)cc(S(=O)(=O)c2c(C(=O)NCC(=O)NN)[nH]c3ccc(Cl)cc23)c1,cytopathic effect / MTT,EC50,,C8166,,RT-K103R,<0.1 µM
Nc1nc(N)c2ncn([C@H]3C=C[C@@H](CO)C3)c2n1,cytopathic effect,EC50,IIIB,MT-2,,,4.7 µg/mL
COC(=O)[C@H](C)NP(=O)(OC[C@@H]1C=C[C@H](n2cc(C)c(=O)[nH]c2=O)O1)Oc1ccc(OC)cc1,p24,EC50,RTMDR,PBMC,,RT M41L L74V T215Y V106N,1.014 µM
Cc1cc(C#N)cc(C)c1Oc1ccnc(S(=O)(=O)CC(=O)Nc2ccc(C#N)cc2)n1,MTT,EC50,IIIB,MT-4,,Y181C,0.017 µM
Cc1cn([C@H]2C[C@H](N=[N+]=[N-])[C@@H](COP(=O)(O)C(=O)NCCN)O2)c(=O)[nH]c1=O,p24,EC50,GKV-4046,MT-4,,,1.7 µM
Cc1ncc(-c2ccc(OCC(C)C)cn2)c(N2CCC(C)(C(C)C)CC2)c1[C@H](OC(C)(C)C)C(=O)O,luminescence,EC50,NL4-3,MT-2,,,43.1 µM
O=c1c(O)cc([C@H]2Oc3cc(O)cc(O)c3C[C@H]2O)cc2c([C@H]3Oc4cc(O)cc(O)c4C[C@H]3O)cc(O)c(O)c12,p24,EC50,IIIB,MT-2,,,5.33 µM
C=C(C)[C@]1(O)C[C@@H](C)[C@@]2(O)[C@H]([C@H]1OC(=O)/C=C/C=C/CCCCC)[C@@H]1O[C@]1(CO)[C@@H](O)[C@]1(O)C(=O)C(C)=C[C@H]12,syncytia,EC50,IIIB,C8166,,,0.01447 µM
Clc1cc(/C=C/c2ccc(N3CCCC3)cc2)nc2ccccc12,luminescence,EC50,VB59,TZM-bl,,,9.86 µM
C=CCOC(=O)N[C@@H](Cc1ccccc1)[C@H](O)CN(CC(C)C)S(=O)(=O)c1ccc(F)c(NC(C)=O)c1,p24,EC50,IIIB,CEM,,,<1.001 µM
O=C(NCCCCCN1CCCC2=C[C@@H]3C[C@@H](CN4CCCC[C@H]34)[C@@H]21)c1ccc(OC(F)(F)F)cc1,luciferase,EC50,NL4-3,MT-4,,,0.98 µM
Cc1cc(-c2ccc(C#N)cc2)cc(C)c1Oc1ccnc(S(=O)(=O)CC(=O)Nc2ccc(Br)cc2)n1,MTT,EC50,IIIB,MT-4,,Y188L,0.977 µM
C=C(C)[C@@H]1CC[C@]2(C(=O)NCCCCCCCC(=O)N[C@@H](CC(C)C)[C@@H](O)CC(=O)O)CC[C@]3(C)[C@H](CC[C@@H]4[C@@]5(C)CC[C@H](O)C(C)(C)[C@@H]5CC[C@]43C)[C@@H]12,cytopathic effect / MTT,EC50,NDK,CEM + CEM-4,,,>5 µM
CC(C)Nc1cccnc1N1CCN(C(=O)c2cc3cc(F)ccc3[nH]2)CC1,p24,EC50,D34,PBMC,,,0.001 µM
CCCCOc1ccc(-c2cnc(C)c([C@H](OC(C)(C)C)C(=O)O)c2N2CCC3(CCCC3)CC2)nc1,luminescence,EC50,NL4-3,MT-2,,,4.5 µM
C=CCOC(=O)N[C@@H](Cc1ccccc1)[C@H](O)CN(CC1CCCC1)S(=O)(=O)c1ccc(F)cc1,p24,EC50,IIIB,CEM,,,<0.101 µM
CCCc1cc(=O)oc2c3c(c4c(c12)OC(C)(C)CC4)O[C@@H](C)[C@H](C)[C@@H]3O,XTT,EC50,Oxathiin carboxanilide-resistant RT L100I,CEM + CEM-SS,,RT-L100I,>20 µM
CC(C)CCC[C@@H](C)[C@H]1CCC2C3CCC4C[C@@H](OCc5cn([C@@H]6O[C@H](COS(=O)(=O)[O-])[C@@H](O[C@H]7O[C@H](COS(=O)(=O)[O-])[C@@H](O[C@H]8O[C@H](COS(=O)(=O)[O-])[C@@H](OS(=O)(=O)[O-])[C@H](OS(=O)(=O)[O-])[C@H]8OS(=O)(=O)[O-])[C@H](OS(=O)(=O)[O-])[C@H]7OS(=O)(=O)[O-])[C@H](OS(=O)(=O)[O-])[C@H]6OS(=O)(=O)[O-])nn5)CC[C@]4(C)C3CC[C@@]21C,p24 / ELISA / antigen,EC50,HI05-91 isolate (R5),PBMC,,,2 µg/mL
C=C(C)COC(=O)N[C@@H](Cc1ccccc1)[C@H](O)CN(CC(C)C)S(=O)(=O)c1ccc(F)cc1,p24,EC50,IIIB,CEM,,,<1.001 µM
CCN(CC)C(=S)N=Nc1c(O)n(C)c2ccccc12,RT activity,EC50,,H9/HIV-1 + H9,chronic infection,,0.3 µg/mL
Cc1cc(-c2ccc(C#N)cc2)cc(C)c1Oc1ccnc(S(=O)(=O)C(C)C(=O)Nc2ccc(Cl)cc2)n1,MTT,EC50,IIIB,MT-4,,E138K,0.114 µM
Cc1cn([C@H]2C[C@H](N=[N+]=[N-])[C@@H](COP(=O)(O)C(=O)NCCO)O2)c(=O)[nH]c1=O,p24,EC50,GKV-4046,MT-4,,,2.4 µM
CC(C)CN(C[C@@H](O)[C@H](Cc1ccccc1)NC(=O)O[C@@H]1CCOC1)S(=O)(=O)c1cc(Cl)c(Cl)s1,p24,EC50,IIIB,CEM,,,<1.001 µM
Cc1cc(-c2ccc(C#N)cc2)cc(C)c1Oc1ccnc(S(=O)(=O)CC(=O)Nc2ccc(F)cc2)n1,MTT,EC50,IIIB,MT-4,,E138K,0.112 µM
Cc1ccc(C)c(C(Cl)S(=O)(=O)c2cc(C)cc[n+]2[O-])c1,cytopathic effect,EC50,,CEM,,RT-K103N,3 µg/mL
Clc1cc(/C=C/c2ccc(OCc3ccccc3)cc2)nc2ccccc12,luminescence,EC50,VB59,TZM-bl,,,76.64 µM
Cc1cn([C@H]2C[C@H](N=[N+]=[N-])[C@@H](COP(=O)(O)CO)O2)c(=O)[nH]c1=O,p24,EC50,GKV-4046,MT-4,,,8.3 µM
CCc1cn([C@@H]2C[C@H](O)[C@@H](CO)O2)c(=O)[nH]c1=O,p24,EC50,IIIB,H9,,,10 µM
Cc1cc(C)cc(S(=O)(=O)c2c(C(N)=O)[nH]c3c(Cl)cc(Cl)cc23)c1,cytopathic effect / MTT,EC50,,MT-4,,RT-K103N Y181C,>100 µM
O=C(NCCCCCN1CCCC2=C[C@@H]3C[C@@H](CN4CCCC[C@H]34)[C@@H]21)c1c(F)cc(Br)cc1F,luciferase,EC50,NL4-3,MT-4,,,>20 µM
COc1cc2c(cc1OC)C1=NOC(c3ccc(F)cc3)C1C2,MTT,EC50,IIIB,MT-4,,,9.05 µM
CC(=O)Nc1ccc(S(=O)(=O)N(CC(C)C)C[C@@H](O)[C@H](Cc2ccccc2)NC(=O)[C@H](CC(N)=O)NC(=O)c2ccc3ccccc3n2)cc1,p24,EC50,IIIB,CEM,,,<0.101 µM
CCc1c(Sc2ccccc2)n(COCc2ccccc2)c(=O)[nH]c1=O,cytopathic effect / MTT,EC50,RF,MT-4,,,0.0016 µM
COc1cc(C[C@@]2(O)C(=O)OC[C@@H]2Cc2ccc(OC)c(OC)c2)ccc1O,RT activity,EC50,IIIB,H9,,,<1 µM
Cc1ccc(C)c(C(C)S(=O)(=O)c2c(C)ccc[n+]2[O-])c1,cytopathic effect,EC50,,CEM,,RT-Y181C,≥20 µg/mL
COC(=O)[C@H](C)NP(=O)(OC[C@@H]1C=C[C@H](n2cc(C)c(=O)[nH]c2=O)O1)Oc1ccc(Br)cc1Cl,p24,EC50,IIIB WT,PBMC,,,0.001 µM
Nc1ccn([C@H]2CC[C@@H](CO)O2)c(=O)n1,,EC50,IIIB,CEM + CEM-SS,,,0.0693 µM
O=C(NCc1ccc(F)cc1F)c1c(O)c2cccnc2n(O)c1=O,luciferase,EC50,,HOS,pseudotyped,G118R,107.4 µM
COc1ccc(/C=C/c2cc(Cl)c3cc(Cl)ccc3n2)c(OC)c1,luminescence,EC50,VB59,TZM-bl,,,0.58 µM
Cc1ncc(-c2ccc(OCCOC(C)C)cn2)c(N2CCC3(CCCC3)CC2)c1[C@H](OC(C)(C)C)C(=O)O,luminescence,EC50,NL4-3,MT-2,,,6.3 µM
Cc1cc(-c2ccc(C#N)cc2)cc(C)c1Oc1ccnc(S(=O)(=O)CC(=O)NCc2ccc(F)cc2)n1,MTT,EC50,IIIB,MT-4,,,>6.42 µM